The text below walks through data of patent publication US11834696B2, “Antimicrobial susceptibility testing with large-volume light scattering imaging and deep learning video microscopy” (Arizona Board of Regents on behalf of Arizona State …, priority 2017, dated 2023).

Data set [1] has as its system E. coli. Description: Deep learning video microscopy-based antimicrobial susceptibility testing (DLVM-AST). The following applies: time needed to determine MIC; triplicate. The class given is cell-based, Escherichia coli (ATCC 43888).
Data set [2] deals with E. coli. Description: AST without DL (division feature only, cell counting from the videos). The format is cell-based, Escherichia coli (ATCC 43888). To be noted: triplicate. The method, then: To further validate the DLVM-AST method, we counted the total number of bacteria cells (Ntotal) from the videos (as shown in FIG. 9), and plotted Ntotal (mean±std) vs. time for PMB at various concentrations (as shown in FIG. 11C).
Growth and preparation of E. coli. Frozen E. coli strains were thawed, and 50 μL of which were cultured in 5 mL of Luria-Bertani (LB) medium (Per liter: 10 g peptone 140, 5 g yeast extract, and 5 g sodium chloride) at 37° C. and 150 rpm for 16 hours. Saturated cultures in the volume of 20 μL were diluted into 5 mL of fresh LB medium, and growth continued at 37° C. with 150 rpm for 1 hour to attain a logarithmic phase of growth. Bacterial cells were collected by centrifugation at 450 g for 5 min and suspended in urine to a concentration of 2×10^7 cells/mL^36. This concentration was determined by measuring the extinction coefficients for E. coli from the Optical Density (OD600) reading taken with a spectrophototometer (NanoDrop™ 2000/2000c Spectrophotometers, Thermo Scientific). The calibration factor for bacterial cell cultures estimation was 8×10^8 cells/mL per OD600 unit. […]
AST with video microscopy. […] Videos of the bacterial cells were recorded at 100 frames per second (fps) immediately (0 min) and after every 30 min. […] To include enough cells for reliable results, we integrated bacterial cells from three videos recorded from different experiments. […]

As for `O=C(O)c1cn(C2CC2)c2cc(N3CCNCC3)c(F)cc2c1=O` [Ciprofloxacin, ciprofloxacin], the “assay time, DLVM-AST” value in data set [1] was determined as 3 h. Further, the “assay time, AST Without DL” value in data set [2] fell in the range of 4 to 5 h.
The corresponding values for polymyxin B are 0.5 h and 3 h.
